Measured values from several laboratories, pooled; numbers as filed in NIAID ChemDB.

Shared fields: growth or infection tests; agent: Candida albicans; measure: MIC

An empty or dashed field is not shown.

SMILES,strain or isolate,read by,setting,value
CCCCSc1nc(C(N)=O)cnc1CCC,ATCC 44859,-,-,>31.25 µg/mL
Cc1cc(-c2cc(C)on2)n(CCO)n1,-,-,-,>200 µM
NNC(=O)/C=C/c1ccccc1,-,-,-,0.003 µg/mL
Cc1c(O)cccc1C(=O)N[C@@H](CSc1ccccc1)[C@H](O)CN1C[C@H]2CCCC[C@H]2C[C@H]1C(=O)NC(C)(C)C,I158E,-,-,64 µg/mL
C[C@H]1[C@H](O)[C@@H](C)/C=C/C=C/C=C/C=C/C=C/C=C/C=C/[C@H](O[C@@H]2O[C@H](C)[C@@H](O)[C@H](N)[C@@H]2O)C[C@@H]2O[C@](O)(C[C@@H](O)C[C@@H](O)CC[C@H](O)[C@@H](O)C[C@@H](O)CC(=O)O[C@H]1C)C[C@H](O)[C@H]2C(=O)O,5 isolates,-,-,0.63–1.25 µg/mL
CCCSc1nc(C(N)=S)cnc1CC(C)C,ATCC 44859,-,-,>31.25 µg/mL
CS(=O)(=O)c1nnc(Cc2cc([N+](=O)[O-])ccc2-c2ncc[nH]2)s1,ATCC 10231,-,-,0.78 µg/mL
CCCc1ncc(C(N)=O)nc1Sc1ccccc1,ATCC 44859,-,-,>31.25 µg/mL
Nc1[nH]c(=O)ncc1F,10 isolates,broth dilution,pH 5,0.25 µg/mL
COc1ccc(C[n+]2ccc3c4c(cc(OC)c(OC)c42)C=CN3Cc2cc(OC)c(OC)c(OC)c2)cc1O,-,-,-,>64 µg/mL
CCCc1ncc(C(N)=O)nc1SC,ATCC 44859,-,-,>31.25 µg/mL
O=C1C(Sc2ccc(F)cc2F)=C(Sc2ccc(F)cc2F)C(=O)c2ncccc21,ATCC 10231,-,-,6.3 µg/mL
CCCCc1ncc(C(N)=S)nc1SC,ATCC 44859,-,-,>31.25 µg/mL
CC(CO)(CO)n1sc2ccccc2c1=S,-,-,-,20 µg/mL
Clc1ccccc1C(c1ccccc1)(c1ccccc1)n1ccnc1,10 isolates,broth dilution,pH 4,0.25 µg/mL
C[C@H]1[C@H](O)[C@@H](C)/C=C/C=C/C=C/C=C/C=C/C=C/C=C/[C@H](O[C@@H]2O[C@H](C)[C@@H](O)[C@H](N)[C@@H]2O)C[C@@H]2O[C@](O)(C[C@@H](O)C[C@@H](O)CC[C@H](O)[C@@H](O)C[C@@H](O)CC(=O)O[C@H]1C)C[C@H](O)[C@H]2C(=O)O,Y0109,broth dilution,-,4 µg/mL
CCCCCCCCOC(=O)/C=C/c1ccccc1,-,-,-,0.002 µg/mL
CC(CO)(CO)n1sc2ccccc2c1=O,-,-,-,5 µg/mL
Cc1ccc(SC2=C(Sc3ccc(C)cc3)C(=O)c3ncccc3C2=O)cc1,ATCC 10231,-,-,6.3 µg/mL
CN=C(NC)SCCN(CCSC(=NC)NC)CCSC(=NC)NC,ATCC 18804,-,-,250 µg/mL
CCCn1nc(C)c(N=O)c1-c1cc(C)on1,-,-,-,7.4 µM
CCCc1ncc(C(N)=S)nc1SCC,ATCC 44859,-,-,>31.25 µg/mL
COc1cc2c3c(cc[n+](Cc4ccccc4)c3c1OC)N(Cc1ccccc1)C=C2,-,-,-,>64 µg/mL
OCCCn1sc2ccccc2c1=S,-,-,-,15 µg/mL
CCSc1nnc(Cc2cc([N+](=O)[O-])ccc2-c2ncc[nH]2)s1,ATCC 10231,-,-,>100 µg/mL
C/C=C/C/C=C/CCC(=O)[C@H]1O[C@H]1C(N)=O,-,-,-,≤1.5 µg/mL
CCC(C)CC(C)CCCCCCCCC(=O)N[C@H]1C[C@@H](O)[C@H](NCCN)NC(=O)[C@@H]2[C@@H](O)CCN2C(=O)[C@H]([C@H](O)CCN)NC(=O)[C@H]([C@H](O)[C@@H](O)c2ccc(O)cc2)NC(=O)[C@@H]2C[C@@H](O)CN2C(=O)[C@H]([C@@H](C)O)NC1=O,10 isolates,broth dilution,pH 7,0.06 µg/mL
CCC(C(SCCN)c1cc([N+](=O)[O-])ccc1Cl)[N+](=O)[O-],-,-,-,100 µg/mL
OC(Cn1cncn1)(Cn1cncn1)c1ccc(F)cc1F,TIMM1768,-,-,100 µg/mL
CCCCCOc1ccc(-c2ccc(-c3ccc(C(=O)N[C@H]4CCCNC(=O)C5CCCN5C(=O)C(C(C)O)NC(=O)C(CCc5ccc(O)cc5)NC(=O)C5C[C@@H](O)CN5C(=O)C(C(C)O)NC4=O)cc3)cc2)cc1,ATCC 62376,-,-,6.25 µg/mL
NCCSC(C[N+](=O)[O-])c1cc([N+](=O)[O-])ccc1Br,-,-,-,1000 µg/mL
CCS(=O)(=O)c1nnc(Cc2cc([N+](=O)[O-])ccc2-c2ncc[nH]2)s1,ATCC 10231,-,-,3.12 µg/mL
CC(CO)n1sc2ccccc2c1=O,-,-,-,10 µg/mL
N=C(N)c1ccc(OCCCCCCOc2ccc(C(=N)N)cc2)cc1,Ca1,agar diffusion / agar,-,29 µg/mL
Cc1ccc(SC2=C(Sc3ccc(C)c(C)c3)C(=O)c3ncccc3C2=O)cc1C,ATCC 10231,-,-,12.5 µg/mL
CCSc1nc(C(N)=S)cnc1CC(C)C,ATCC 44859,-,-,>31.25 µg/mL
CCCCCOc1ccc(-c2ccc(-c3ccc(C(=O)N[C@H]4CCCNC(=O)C5C[C@H](NCCN)CN5C(=O)C(C(C)O)NC(=O)C(CCc5ccc(O)cc5)NC(=O)C5C[C@@H](O)CN5C(=O)C(C(C)O)NC4=O)cc3)cc2)cc1,ATCC CCH442,-,-,0.39 µg/mL
CCn1c2c(c3ccccc31)C(=O)c1nccc(C)c1C2=O,-,-,-,>200 µg/mL
O=c1ccc2nccc3c4ccccc4n1c23,-,-,-,56.1 µM
O=C1C(Sc2cccc(Cl)c2)=C(Sc2cccc(Cl)c2)C(=O)c2ncccc21,ATCC 10231,-,-,6.3 µg/mL
CC(O)Cn1sc2ccccc2c1=O,-,-,-,20 µg/mL
CC(C)c1cccc(-c2nc3[n+]([nH]2)CCN([C@H](C)[C@](O)(C[n+]2cnc[nH]2)c2ccc(F)cc2F)C3)c1,Y0109,-,-,0.125 µg/mL
O=C(/C=C/c1ccccc1)Nc1ccc([N+](=O)[O-])cc1[N+](=O)[O-],-,-,-,0.003 µg/mL
CCCCCOc1ccc(-c2ccc(-c3ccc(C(=O)N[C@H]4CCCNC(=O)C5C[C@H](NC(=O)c6cn[nH]c6)CN5C(=O)C(C(C)O)NC(=O)C(CCc5ccc(O)cc5)NC(=O)C5C[C@@H](O)CN5C(=O)C(C(C)O)NC4=O)cc3)cc2)cc1,ATCC 10231,-,-,0.2 µg/mL
Oc1ccc(Cl)c2ccc(Cl)nc12,ATCC 60193,-,-,25 µg/mL
C[C@@H](c1ncncc1F)[C@](O)(Cn1cncn1)c1ccc(F)cc1F,10 isolates,broth dilution,pH 6,0.25 µg/mL
CCCSc1nnc(Cc2cc([N+](=O)[O-])ccc2-c2ncc[nH]2)s1,ATCC 10231,-,-,>100 µg/mL
CCC(C)OC(=O)/C=C/c1ccccc1,-,-,-,0.001 µg/mL
Cc1cc(Sc2ccccc2)nc2c1C(=O)C(Sc1ccc(Sc3ccccc3)cc1)=C(Sc1ccc(Sc3ccccc3)cc1)C2=O,ATCC 10231,-,-,3.2 µg/mL
CCCOC(=O)/C=C/c1ccccc1,-,-,-,0.002 µg/mL
CN=C(NC)SCCN(CCSC(=NC)NC)CCN(CCSC(=NC)NC)CCSC(=NC)NC,ATCC 18804,-,-,125 µg/mL
O=C1C(Sc2cccc(F)c2)=C(Sc2cccc(F)c2)C(=O)c2ncccc21,ATCC 10231,-,-,12.5 µg/mL
CCCCCCCCOc1ccc(N2CCN(c3ccc(C(=O)N[C@H]4CCCNC(=O)C5C[C@H](N)CN5C(=O)C(C(C)O)NC(=O)C(Cc5ccc(C=O)cc5)NC(=O)C5CCCN5C(=O)C(C(C)O)NC4=O)cc3)CC2)cc1,ATCC CCH442,-,-,25 µg/mL
COc1cc(CC=C(C)C)c([C@H]2Oc3c(CC=C(C)C)c(OC)cc(O)c3C(=O)[C@@H]2O)c(CC=C(C)C)c1O,NIH B311,-,-,>100 µg/mL
CC(O)C1NC(=O)C(CCc2ccc(O)cc2)NC(=O)C2C[C@@H](O)CN2C(=O)C(C(C)O)NC(=O)[C@@H](NC(=O)c2ccc(N3CCN(c4ccc(O)cc4)CC3)cc2)CCCNC(=O)C2C[C@H](N)CN2C1=O,ATCC CCH442,-,-,25 µg/mL
CCCCc1ncc(C(N)=O)nc1Sc1ccccc1,ATCC 44859,-,-,>31.25 µg/mL
Cc1cc(-c2c(N=O)c(C)nn2C)no1,-,-,-,25 µM
CCCCCOc1ccc(-c2ccc(-c3ccc(C(=O)N[C@H]4C[C@@H](O)[C@@H](OCCN(C)CC)NC(=O)[C@@H]5[C@@H](O)[C@@H](C)CN5C(=O)[C@H]([C@H](C)O)NC(=O)[C@H]([C@H](O)[C@@H](O)c5ccc(O)cc5)NC(=O)[C@@H]5C[C@@H](O)CN5C(=O)[C@H]([C@H](C)O)NC4=O)cc3)cc2)cc1,-,-,-,0.156 µg/mL
Cc1cc(-c2n[nH]c(C)c2N=O)no1,-,-,-,>200 µM
CCCCCOc1ccc(-c2ccc(-c3ccc(C(=O)N[C@H]4CCCNC(=O)C5C[C@H](NC(=O)CC)CN5C(=O)C(C(C)O)NC(=O)C(CCc5ccc(O)cc5)NC(=O)C5C[C@@H](O)CN5C(=O)C(C(C)O)NC4=O)cc3)cc2)cc1,ATCC CCH442,-,-,0.39 µg/mL
CCCCCOc1ccc(-c2ccc(-c3ccc(C(=O)N[C@H]4C[C@@H](O)[C@@H](O)NC(=O)[C@@H]5[C@@H](O)[C@@H](C)CN5C(=O)[C@H]([C@H](C)O)NC(=O)[C@H]([C@H](O)[C@@H](O)c5ccc(O)cc5)NC(=O)[C@@H]5C[C@@H](O)CN5C(=O)[C@H]([C@H](C)O)NC4=O)cc3)cc2)cc1,-,-,-,0.005 µg/mL
O=C1C(Sc2cccc(Sc3ccc4ccccc4c3)c2)=C(Sc2cccc(Sc3ccc4ccccc4c3)c2)C(=O)c2ncccc21,ATCC 10231,-,-,12.5 µg/mL

4 of the rows above, restated:

SMILES | strain or isolate | read by | setting | value
OCCCn1sc2ccccc2c1=S | - | - | - | 15 µg/mL
Cc1cc(Sc2ccccc2)nc2c1C(=O)C(Sc1ccc(Sc3ccccc3)cc1)=C(Sc1ccc(Sc3ccccc3)cc1)C2=O | ATCC 10231 | - | - | 3.2 µg/mL
CN=C(NC)SCCN(CCSC(=NC)NC)CCSC(=NC)NC | ATCC 18804 | - | - | 250 µg/mL
Cc1ccc(SC2=C(Sc3ccc(C)cc3)C(=O)c3ncccc3C2=O)cc1 | ATCC 10231 | - | - | 6.3 µg/mL

a–b is a range or a potency band. Rows are shuffled and stem from different studies.